Pooled drug test results. Numbers come from NIAID ChemDB, via PubChem.

Shared fields: tests in culture; agent: HIV-1; cells: H9; measure: EC50

ECn is the concentration giving n% inhibition of infection, replication or growth. Blank or dashed fields: not listed here. Lines come from different laboratories, so protocols vary.

smiles	strain or isolate	method	conditions	value
Cn1ccc(=O)c2cnc(-c3ccncc3)nc21	IIIB	p24 / trypan blue		55 µM
CCOC(=O)c1cc(C(=O)c2ccc(O)cc2)n2ccc(C(=O)NCc3ccccn3)cc12	NL4-3	ELISA		35.2 µM
C=C(C)[C@@H]1CC[C@]2(CO)CC[C@]3(C)[C@H](CC[C@@H]4[C@@]5(C)CC=CC(C)(C)[C@@H]5CC[C@]43C)[C@@H]12	IIIB	p24		5.4 µM
Cc1cn([C@@H]2O[C@H](CO)C=C2F)c(=O)[nH]c1=O	IIIB	antigen		>1000 µM
NC(=O)CNC(=O)[C@@H]1CCCN1	SF2	p24		>100 µM
CCCCn1ccc(=O)c2cnc(-c3ccncc3)nc21	IIIB	p24 / trypan blue		7.5 µM
NCC(=O)N1CCC[C@H]1C(=O)NCC(N)=O	SF2	p24		<100 µM
COc1ccc(-c2c(C)nc3c(N4CCN(C(=O)OC(C)(C)C)CC4)cc(C)nn23)cc1OC		p24		2 µM
C=C(C)[C@@H]1CC[C@]2(CO)CC[C@]3(C)[C@H](CC[C@@H]4[C@@]5(C)CC[C@H](OC(=O)CCC(=O)O)C(C)(C)[C@@H]5CC[C@]43C)[C@@H]12	IIIB	p24		>100 µg/mL
COC(=O)CNC(=O)CNC(=O)CNC(=O)CNC(=O)c1cc(C(=O)c2ccc3ccccc3c2)n2ccc(C(=O)c3ccccc3)cc12		p24		40.7 µM
CCCCCCCCCCCCCCOC[C@H](CO[C@]1(C(=O)O)C[C@H](OS(=O)(=O)O)[C@@H](NC(C)=O)[C@H]([C@H](OS(=O)(=O)O)[C@@H](COS(=O)(=O)O)OS(=O)(=O)O)O1)OCCCCCCCCCCCCCC	IIIB	p24		16 µM
Cc1cn2c(nc1=O)O[C@H]1C[C@@H](COC(c3ccccc3)(c3ccccc3)c3ccccc3)O[C@H]12	IIIB	antigen		>1000 µM
NCC(N)=O	IIIB	p24		11 µM
CCOC(=O)c1cc(C(=O)c2ccccc2)n2ccc(C(=O)NCc3ccccn3)cc12	NL4-3	ELISA		47 µM
Cc1ccsc1C(CC(=O)c1ccncc1)CC(=O)c1ccncc1	IIIB	p24		48 µM
CCCCCCCCCCCCCCO	IIIB	RT activity		10 µg/mL
CCOC(=O)c1cc(C(=O)c2ccc([N+](=O)[O-])cc2)n2ccc(C(=O)NCc3ccccn3)cc12	NL4-3	ELISA		20.5 µM
Nc1nc(NC2CC2)c2ncn([C@H]3C=C[C@@H](CO)C3)c2n1		GFP / reporter gene / fluorescence	pseudotyped	0.029 µM
OC[C@H]1OC(O)C[C@@H](O)[C@@H]1O		syncytia		<10000 µM
O[C@H]1OC[C@H](Cc2ccc3c(c2)OCO3)[C@H]1Cc1ccc2c(c1)OCO2				0.85 µg/mL
O=C(CCCC[C@@H]1SC[C@@H]2NC(=O)N[C@@H]21)NCCOCCOCCOc1cc(C2(C(F)(F)F)N=N2)ccc1C(=O)NCCOCCOCCNC(=O)c1cc(C(=O)c2ccc3ccccc3c2)n2ccc(C(=O)c3ccccc3)cc12		p24		34.6 µM
CCOC(=O)c1cc(C(=O)c2ccccc2)n2ccc(C(=O)N[C@H](C)c3ccccc3)cc12	NL4-3	ELISA		41 µM
CC(=O)N[C@@H]1CCN(c2cc(Cl)nn3c(-c4ccc(F)cc4)c(C)nc23)C1		p24		>100 µM
CONc1c2cc(Cl)ccc2nc(=S)c2ccccc12	LAV	syncytia		0.38 µM
[N-]=[N+]=NCCOCCOCCOc1cc(C2(C(F)(F)F)N=N2)ccc1C(=O)NCCOCCOCCNC(=O)c1cc(C(=O)c2ccc3ccccc3c2)n2ccc(C(=O)c3ccccc3)cc12		p24		27.4 µM
Cc1cn([C@@H]2O[C@H](CO)[C@@H](N=[N+]=[N-])[C@H]2F)c(=O)[nH]c1=O	IIIB	antigen		>1000 µM
CC(=O)N[C@@H]1CCN(c2cc(C)nn3c(C)c(C)nc23)C1		p24		>1 µM
Oc1cc(O)c2c(c1)O[C@H](c1ccc(O)c(O)c1)[C@H](O)[C@H]2c1c(O)cc(O)c2c1O[C@H](c1ccc(O)c(O)c1)[C@H](O)[C@H]2c1c(O)cc(O)c2c1O[C@H](c1ccc(O)c(O)c1)[C@H](O)C2	IIIB	p24		25 µM
O=C(/C=C/c1ccc(O)c2c1[C@H](C(=O)O[C@H](Cc1ccc(O)c(O)c1)C(=O)O)[C@@H](c1ccc(O)c(O)c1)O2)O[C@H](Cc1ccc(O)c(O)c1)C(=O)O	MN	p24		6.9 µM
CC(=O)N(O)CCCCCNC(=O)CCC(=O)N(O)CCCCCNC(=O)CCC(=O)N(O)CCCCCN	IIIB	p24		<20 µM
O=C1CCC(=O)N1CCCCCCc1ccc2c3cc(CO)ccc3c3cc(CO)ccc3c2c1	NL4-3	p24		0.5 µM
CCn1ccc(=O)c2ccc(-c3ccncc3)nc21	IIIB	p24 / trypan blue		15 µM
CC(=O)N[C@@H]1CCN(c2cc(C)nn3c(-c4ccc(OC(F)(F)F)cc4)c(C)nc23)C1		p24		0.2 µM
COc1cc(O)c(CC=C(C)C)c(O)c1C(=O)/C=C/c1ccc(O)cc1	IIIB	p24		<121.8 µM
O=c1oc2c(c(O)c1C(c1ccccc1)C1CC1)CCCCCC2				60 µM
Nc1ncnc2c1ncn2[C@@H]1O[C@H](COP(=O)([O-])O[C@@H]2C[C@@H](COP(=O)([O-])O[C@@H]3C[C@@H](COP(=O)([O-])O)O[C@H]3n3cnc4c(N)ncnc43)O[C@H]2n2cnc3c(N)ncnc32)[C@@H](O)[C@H]1O	IIIB	p24		>1 µM
Cc1cn([C@@H]2O[C@H](COC(c3ccccc3)(c3ccccc3)c3ccccc3)[C@@H](F)[C@H]2N=[N+]=[N-])c(=O)[nH]c1=O	IIIB	antigen		>1000 µM
CC(C)CC(=O)N[C@H](C(=O)N[C@H](C(=O)N[C@@H](CC(C)C)[C@@H](O)CC(=O)N[C@@H](C)C(=O)N[C@@H](CC(C)C)[C@@H](O)CC(=O)O)C(C)C)C(C)C	IIIB	RT activity		<500 µM
COCC1OC(=O)C12N(C)C(=O)C(C)C2(O)C(CC(C)C(O)/C=C/C=C/CNC(=O)C(C)(C)C(O)\C(C)=C/C=C\C=C\Cc1cnc(C)o1)OC	IIIB	RT activity		2.5 µg/mL
CC(=O)OC[C@H]1O[C@@H](n2cc(C)c(=O)[nH]c2=O)C[C@@H]1F	IIIB	antigen		>1000 µM
Nc1cc(S(=O)(=O)O)c2ccccc2c1N		p24		>1 µg/mL
COc1ccc(-c2c(C)nc3c(N4CC[C@@H](NC(=O)OCc5ccccc5)C4)cc(C)nn23)cc1OC		p24		0.3 µM
NC(=O)n1c(O)c(C(=O)c2cccs2)c2cc(Cl)ccc21	MN	p24		<45 µM
COc1cc(C2(C(F)(F)F)N=N2)ccc1C(=O)NCCOCCOCCNC(=O)c1cc(C(=O)c2ccc3ccccc3c2)n2ccc(C(=O)c3ccccc3)cc12		p24		14.9 µM
CC(C)c1ccccc1Sc1c(O)cc(-c2ccc(OCc3ccncc3)cc2)oc1=O	IIIB	RT activity		0.65 µM
Cn1cc(C(=O)O)c(=O)c2cc(N)c(N3CCN(c4ccccn4)CC3)cc21	IIIB	RT activity		0.85 µM
COc1ccc(-c2c(C)nc3c(N4CC[C@@H](NC(=O)COc5ccccc5)C4)cc(C)nn23)cc1OC		p24		0.2 µM
Nc1ncnc2c1ncn2[C@@H]1O[C@H](COP(=O)([O-])O)[C@@H](O)[C@H]1OP(=O)([O-])OC[C@@H]1C[C@@H](OP(=O)([O-])OC[C@@H]2C[C@@H](O)[C@H](n3cnc4c(N)ncnc43)O2)[C@H](n2cnc3c(N)ncnc32)O1	IIIB	p24		1 µM
Nc1ccn([C@H]2C[C@H](CO)[C@@H](CO)O2)c(=O)n1				0.01 µM
CCCn1ccc(=O)c2cnc(-c3ccncc3)nc21	IIIB	p24 / trypan blue		3.5 µM

Repeating the final 6 entries:

CC(C)c1ccccc1Sc1c(O)cc(-c2ccc(OCc3ccncc3)cc2)oc1=O ; strain or isolate: IIIB ; method: RT activity ; value: 0.65 µM
Cn1cc(C(=O)O)c(=O)c2cc(N)c(N3CCN(c4ccccn4)CC3)cc21 ; strain or isolate: IIIB ; method: RT activity ; value: 0.85 µM
COc1ccc(-c2c(C)nc3c(N4CC[C@@H](NC(=O)COc5ccccc5)C4)cc(C)nn23)cc1OC ; method: p24 ; value: 0.2 µM
Nc1ncnc2c1ncn2[C@@H]1O[C@H](COP(=O)([O-])O)[C@@H](O)[C@H]1OP(=O)([O-])OC[C@@H]1C[C@@H](OP(=O)([O-])OC[C@@H]2C[C@@H](O)[C@H](n3cnc4c(N)ncnc43)O2)[C@H](n2cnc3c(N)ncnc32)O1 ; strain or isolate: IIIB ; method: p24 ; value: 1 µM
Nc1ccn([C@H]2C[C@H](CO)[C@@H](CO)O2)c(=O)n1 ; value: 0.01 µM
CCCn1ccc(=O)c2cnc(-c3ccncc3)nc21 ; strain or isolate: IIIB ; method: p24 / trypan blue ; value: 3.5 µM